Results of unrelated studies side by side (data: NIAID ChemDB).

All rows: growth or infection tests; agent: Candida albicans; read-out: zone

Lines come from different laboratories, so protocols vary. An empty or dashed field is not shown. Zones are inhibition diameters on agar.

CCOC(=O)C1CCN(Cn2nc(C34CC5CC(CC(C5)C3)C4)n(/N=C/c3ccccc3Cl)c2=S)CC1 ; strain or isolate: IFO 3007 ; method: agar diffusion ; tested at: 200 µg/disc ; value: <10 mm
Cc1nc2ccccc2n(CC(=O)NN2C(=O)CSC2c2ccccc2F)c1=O ; tested at: 100 µg/mL ; value: 15 mm
CCOC(=O)c1[nH]nc(-c2ccc(Cl)cc2)c1N=Nc1ccccc1 ; strain or isolate: ATCC 10231 ; method: agar diffusion / agar ; tested at: 0.002 µg/mL ; value: 16 mm
Cc1ccc(N2NOC(=O)C2S(=O)(=O)Nc2nc3ccc(Br)cc3s2)cc1 ; strain or isolate: MTCC 227 ; method: agar diffusion ; tested at: 250 µg/mL ; value: 18 mm
COc1cc(C2CC(c3ccc4c(c3)OCO4)=NN2c2ccccc2)cc(OC)c1OC ; strain or isolate: DSM 70014 ; method: agar diffusion / agar ; tested at: 1 mg/mL ; value: 14 mm
COc1ccc(-c2nn(-c3ccccc3)cc2C2CC(c3ccc(SC)cc3)=NN2c2ccccc2)cc1 ; strain or isolate: MTCC 227 ; tested at: 500 µg/mL ; value: 0 mm
COc1ccc(NC(=O)CSC2NC(c3ccc(OC)c(OC)c3)=CC(c3cc(OC)c(OC)c(OC)c3)N2)cc1 ; strain or isolate: DSM 70014 ; method: agar diffusion / agar ; tested at: 1 mg/mL ; value: 14 mm
COc1ccc(C2SCC(=O)N2NC(=O)Cn2c(=O)c(C)nc3ccccc32)cc1O ; tested at: 100 µg/mL ; value: 20 mm
Clc1ccccc1C(c1ccccc1)(c1ccccc1)n1ccnc1 ; method: agar diffusion / agar ; tested at: 200 µg/disc ; value: 21 mm
O=c1[nH][nH]c(-c2ccc(Br)cc2)c(N=Nc2ccccc2)c1=O ; strain or isolate: ATCC 10231 ; method: agar diffusion / agar ; tested at: 0.002 µg/mL ; value: 16.5 mm
CCOC(=O)C1CCN(Cn2nc(C34CC5CC(CC(C5)C3)C4)n(/N=C/c3ccccc3O)c2=S)CC1 ; strain or isolate: IFO 3007 ; method: agar diffusion ; tested at: 200 µg/disc ; value: 13 mm
S=c1n(CN2CCN(c3ccccn3)CC2)nc(C23CC4CC(CC(C4)C2)C3)n1-c1ccccc1 ; strain or isolate: IFO 0583 ; method: agar diffusion ; tested at: 200 µg/disc ; value: 13 mm
S=c1n(CN2CCN(c3ccccc3)CC2)nc(C23CC4CC(CC(C4)C2)C3)n1/N=C/c1c(Cl)cccc1Cl ; strain or isolate: IFO 3007 ; method: agar diffusion ; tested at: 200 µg/disc ; value: <10 mm
CCOC(=O)c1[nH]nc(-c2ccc(Cl)cc2)c1N ; strain or isolate: ATCC 10231 ; method: agar diffusion / agar ; tested at: 0.002 µg/mL ; value: 17 mm
COc1ccc(C2=NN(C=O)C(c3cc(OC)c(OC)c(OC)c3)C2)cc1OC ; strain or isolate: DSM 70014 ; method: agar diffusion / agar ; tested at: 1 mg/mL ; value: 16 mm
O=C1N/C(=N/N=C/c2c(Cl)cccc2Cl)S/C1=C/c1coc2c(Br)cc(Br)cc2c1=O ; strain or isolate: ATCC 10231 ; method: agar diffusion ; tested at: 200 µg ; value: 0 mm
CSc1ccc(C2=NN(c3ccccc3)C(c3cn(-c4ccccc4)nc3-c3ccc(Cl)cc3)C2)cc1 ; strain or isolate: MTCC 227 ; tested at: 1000 µg/mL ; value: 3 mm
O=c1[nH][nH]c(-c2ccccc2)c(N=Nc2ccccc2)c1=O ; strain or isolate: ATCC 10231 ; method: agar diffusion / agar ; tested at: 0.002 µg/mL ; value: 17.5 mm
COC1=CC(=O)C[C@@H](C)[C@]12Oc1c(Cl)c(OC)cc(OC)c1C2=O ; strain or isolate: MTCC 227 ; method: agar diffusion ; tested at: 250 µg/mL ; value: 24 mm
Cc1ccc(-c2nn(-c3ccc(S(N)(=O)=O)cc3)c3nc(-c4ccc(Br)cc4)cc(C(F)(F)F)c23)cc1 ; strain or isolate: MTCC 227 ; method: agar diffusion / agar ; tested at: 4000 µg/mL ; value: 0 mm
CN(C)CCn1nc(C23CC4CC(CC(C4)C2)C3)n(C)c1=S ; strain or isolate: IFO 0583 ; method: agar diffusion ; tested at: 200 µg/disc ; value: <10 mm
COc1ccc(/C=c2\sc3n(c2=O)C(c2cc(OC)c(OC)c(OC)c2)C=C(c2ccc(OC)c(OC)c2)N=3)cc1OC ; strain or isolate: DSM 70014 ; method: agar diffusion / agar ; tested at: 1 mg/mL ; value: 17 mm
Clc1ccc(-c2nn(-c3ccccc3)cc2C2CC(c3ccc(Cl)cc3Cl)=NN2c2ccccc2)cc1 ; strain or isolate: MTCC 227 ; tested at: 1000 µg/mL ; value: 4 mm
S=c1[nH]nc(C23CC4CC(CC(C4)C2)C3)n1/N=C/c1ccc(Cl)cc1Cl ; strain or isolate: IFO 3007 ; method: agar diffusion ; tested at: 200 µg/disc ; value: <10 mm
C[C@H]1[C@H](O)[C@@H](C)/C=C/C=C/C=C/C=C/C=C/C=C/C=C/[C@H](O[C@@H]2O[C@H](C)[C@@H](O)[C@H](N)[C@@H]2O)C[C@@H]2O[C@](O)(C[C@@H](O)C[C@@H](O)CC[C@H](O)[C@@H](O)C[C@@H](O)CC(=O)O[C@H]1C)C[C@H](O)[C@H]2C(=O)O ; tested at: 20000 µg/mL ; value: 19 mm
CCN1C(=S)N(CN2CCN(c3ccccc3)CC2)NC1C12CC3CC(CC(C3)C1)C2 ; strain or isolate: IFO 0583 ; method: agar diffusion / agar ; tested at: 200 µg/disc ; value: <10 mm
Cn1c(C23CC4CC(CC(C4)C2)C3)nn(CCN2CCCCC2)c1=S ; strain or isolate: IFO 0583 ; method: agar diffusion ; tested at: 200 µg/disc ; value: <10 mm
C/C=C/N1C(=S)N(CN2CCN(c3ccccc3OC)CC2)NC1C12CC3CC(CC(C3)C1)C2 ; strain or isolate: IFO 0583 ; method: agar diffusion / agar ; tested at: 200 µg/disc ; value: <10 mm
O=c1[nH]cnc2c(-c3ccccc3)n[nH]c12 ; strain or isolate: ATCC 10231 ; method: agar diffusion / agar ; tested at: 0.002 µg/mL ; value: 17 mm
COc1ccc(-c2nc3ccccc3c(=O)n2-c2ccc(NS(=O)(=O)C3C(=O)ONN3c3ccc(C)cc3)cc2)cc1[N+](=O)[O-] ; strain or isolate: MTCC 227 ; method: agar diffusion ; tested at: 250 µg/mL ; value: 22 mm
Cc1nc2ccccc2n(CC(=O)NN2C(=O)CSC2c2ccc(N(C)C)cc2)c1=O ; tested at: 50 µg/mL ; value: 14 mm
Cc1ccc(-c2cc(C(F)(F)F)c3c(-c4ccc(C)cc4)nn(-c4ccc(S(N)(=O)=O)cc4)c3n2)cc1 ; strain or isolate: MTCC 227 ; method: agar diffusion / agar ; tested at: 4000 µg/mL ; value: 0 mm
Cc1ccc2occ(/C=C3/S/C(=N\N=C\c4c(Cl)cccc4Cl)NC3=O)c(=O)c2c1 ; strain or isolate: ATCC 10231 ; method: agar diffusion ; tested at: 200 µg ; value: 0 mm
Cc1ccc(N2NOC(=O)C2S(=O)(=O)Nc2nc3c([N+](=O)[O-])cccc3s2)cc1 ; strain or isolate: MTCC 227 ; method: agar diffusion ; tested at: 250 µg/mL ; value: 21 mm
COc1ccc(-c2nn(-c3ccccc3)cc2C2CC(c3ccc(-c4ccccc4)cc3)=NN2c2ccccc2)cc1 ; strain or isolate: MTCC 227 ; tested at: 1000 µg/mL ; value: 0 mm
Cn1c(C23CC4CC(CC(C4)C2)C3)nn(CCN2CCCC2)c1=S ; strain or isolate: IFO 0583 ; method: agar diffusion ; tested at: 200 µg/disc ; value: <10 mm
O=C1NC(=O)C(Cc2nc3ccccc3c3nc(=S)[nH]n23)S1 ; tested at: 20000 µg/mL ; value: 10 mm
O=[N+]([O-])c1ccc(/C=N/n2c(C34CC5CC(CC(C5)C3)C4)n[nH]c2=S)cc1 ; strain or isolate: IFO 3007 ; method: agar diffusion ; tested at: 200 µg/disc ; value: <10 mm
Cc1cc(O)c(C(C)C)cc1Cl ; strain or isolate: AI ; method: agar diffusion ; tested at: 100 µg/mL ; value: 30 mm
CCOC(=O)C1CCN(Cn2nc(C34CC5CC(CC(C5)C3)C4)n(/N=C/c3ccc(C)cc3)c2=S)CC1 ; strain or isolate: IFO 3007 ; method: agar diffusion ; tested at: 200 µg/disc ; value: <10 mm
O=C1NC(=O)C(Cc2nc3ccccc3s2)S1 ; tested at: 20000 µg/mL ; value: 11 mm
COc1ccc(-c2cc(-c3cc(OC)c(OC)c(OC)c3)nc(NN)n2)cc1OC ; strain or isolate: DSM 70014 ; method: agar diffusion / agar ; tested at: 1 mg/mL ; value: 16 mm
COCCSc1nnc(C23CC4CC(CC(C4)C2)C3)n1-c1ccccc1 ; strain or isolate: IFO 0583 ; method: agar diffusion ; tested at: 200 µg/disc ; value: <10 mm
Brc1ccc(-c2nn(-c3ccccc3)cc2C2CC(c3ccc(-c4ccccc4)cc3)=NN2c2ccccc2)cc1 ; strain or isolate: MTCC 227 ; tested at: 500 µg/mL ; value: 4 mm
Cc1ccc(-c2nn(-c3ccc(S(N)(=O)=O)cc3)c3nc(-c4ccc(Cl)cc4)cc(C(F)(F)F)c23)cc1 ; strain or isolate: MTCC 227 ; method: agar diffusion / agar ; tested at: 4000 µg/mL ; value: 0 mm
COc1ccc(C2=CC(c3cc(OC)c(OC)c(OC)c3)NC(=S)N2)cc1OC ; strain or isolate: DSM 70014 ; method: agar diffusion / agar ; tested at: 1 mg/mL ; value: 14 mm
Cc1ccc(-c2nn(-c3ccc(S(N)(=O)=O)cc3)c3nc(C)cc(C(F)(F)F)c23)cc1 ; strain or isolate: MTCC 227 ; method: agar diffusion / agar ; tested at: 4000 µg/mL ; value: 0 mm
COc1ccccc1/C=N/N=C1/NC(=O)/C(=C\c2coc3ccc(Cl)cc3c2=O)S1 ; strain or isolate: ATCC 10231 ; method: agar diffusion ; tested at: 200 µg ; value: 0 mm
Cc1nc2ccccc2n(CC(=O)NN2C(=O)CSC2c2ccccc2Cl)c1=O ; tested at: 100 µg/mL ; value: 12 mm
COc1ccc(C2=CC(c3cc(OC)c(OC)c(OC)c3)NC(=S)N2c2ccccc2)cc1OC ; strain or isolate: DSM 70014 ; method: agar diffusion / agar ; tested at: 1 mg/mL ; value: 16 mm
O=C1N/C(=N/N=C/c2c(Cl)cccc2Cl)S/C1=C/c1ccc(Cl)cc1Cl ; strain or isolate: ATCC 10231 ; method: agar diffusion ; tested at: 200 µg ; value: 16 mm
Cc1nc2ccccc2n(CC(=O)NN2C(=O)CSC2c2ccc(Cl)cc2)c1=O ; tested at: 50 µg/mL ; value: 12 mm
COc1ccc(C2=CC(c3cc(OC)c(OC)c(OC)c3)NC(=S)N2C)cc1OC ; strain or isolate: DSM 70014 ; method: agar diffusion / agar ; tested at: 1 mg/mL ; value: 16 mm

The first 5 rows once more:

smiles,strain or isolate,method,tested at,value
CCOC(=O)C1CCN(Cn2nc(C34CC5CC(CC(C5)C3)C4)n(/N=C/c3ccccc3Cl)c2=S)CC1,IFO 3007,agar diffusion,200 µg/disc,<10 mm
Cc1nc2ccccc2n(CC(=O)NN2C(=O)CSC2c2ccccc2F)c1=O,-,-,100 µg/mL,15 mm
CCOC(=O)c1[nH]nc(-c2ccc(Cl)cc2)c1N=Nc1ccccc1,ATCC 10231,agar diffusion / agar,0.002 µg/mL,16 mm
Cc1ccc(N2NOC(=O)C2S(=O)(=O)Nc2nc3ccc(Br)cc3s2)cc1,MTCC 227,agar diffusion,250 µg/mL,18 mm
COc1cc(C2CC(c3ccc4c(c3)OCO4)=NN2c2ccccc2)cc(OC)c1OC,DSM 70014,agar diffusion / agar,1 mg/mL,14 mm